This is an account of results in paper PMC11003968 (Scientific Reports, 2024).

This assay concerns the target IsdB Y165A, site-directed mutant of Staphylococcus aureus IsdB (Staphylococcus aureus, UniProt Q2FZF0 41-613, Y165A). Description: ELISA. The settings on record: both partners purified. A general note: In an ELISA, binding on a coated surface is turned into a signal by an enzyme label.

B1: Human hemoglobin A (oxyhemoglobin) (complex)
chain 1: not shown
chain 2: not shown
One may read the Kd as the equilibrium constant for the complex coming apart. A higher Kd goes with a looser complex. In the case of B1, the Kd turned out to be 84 ± 11 µM.
